Results taken from the supplement of paper PMC3578754.
Fold change is the IC50 on the isolate divided by the IC50 on a reference virus; 1 = unchanged, higher = more resistant. Changes are given against the subtype B consensus. No active / inactive call. The values were gathered from many studies (numbered anew) with different assays, which the source does not name. Most viruses are clinical isolates; some are laboratory strains or clones with known resistance changes. Isolates with mixed residues are left out; stretches that were not sequenced show no change. Round top values that many isolates share are read here as limits; other very high values and 0.1 may be limits too. The protease changes I3V and N37S, insertions and deletions cannot be read from the source.

Key:
Experiment in all cases: fold change of IC50 against reference virus; higher = more resistant; Cell-culture drug susceptibility tests of virus bearing the protease of each isolate, gathered from many studies.
indinavir = compound: CC(C)(C)NC(=O)[C@@H]1CN(Cc2cccnc2)CCN1C[C@@H](O)C[C@@H](Cc1ccccc1)C(=O)N[C@H]1c2ccccc2C[C@H]1O [indinavir]
saquinavir = compound: CC(C)(C)NC(=O)[C@@H]1C[C@@H]2CCCC[C@@H]2CN1C[C@@H](O)[C@H](Cc1ccccc1)NC(=O)[C@H](CC(N)=O)NC(=O)c1ccc2ccccc2n1 [saquinavir]
ritonavir = compound: CC(C)c1nc(CN(C)C(=O)N[C@H](C(=O)N[C@@H](Cc2ccccc2)C[C@H](O)[C@H](Cc2ccccc2)NC(=O)OCc2cncs2)C(C)C)cs1 [ritonavir]
nelfinavir = compound: Cc1c(O)cccc1C(=O)N[C@@H](CSc1ccccc1)[C@H](O)CN1C[C@H]2CCCC[C@H]2C[C@H]1C(=O)NC(C)(C)C [nelfinavir]

| Test System | fold change of IC50 against reference virus (indinavir) | fold change of IC50 against reference virus (saquinavir) | fold change of IC50 against reference virus (ritonavir) | fold change of IC50 against reference virus (nelfinavir) |
| --- | --- | --- | --- | --- |
| HIV-1 isolate 828 (protease changes: T12P K14R L24I M46I I54V L63A I64V V82A, study 119) | 6.5 | 1 | 49.8 | 8.9 |
| HIV-1 isolate 854 (protease changes: Q18R M36I Q58E L63T A71T, study 57) | 1 | 1 | 1 | 1 |
| HIV-1 isolate 791 (protease changes: N88D, study 61) | 0.1 | 1 | 0.2 | 0.6 |
| HIV-1 isolate 978 (protease changes: D30N, study 61) | 0.1 | 0.3 | 0.2 | 6 |
| HIV-1 isolate 829 (protease changes: L10I I13V I64V, study 54) | 0.9 | 0.6 | 0.8 | 1 |
| HIV-1 isolate 928 (protease changes: I62V L63P A71V L90M, study 57) | 2 | 5 | 4 | 2 |
| HIV-1 isolate 1075 (protease changes: M36I V82F, study 38) | 1 | 1 | 5 | 6 |
| HIV-1 isolate 1461 (protease changes: V82A, study 38) | 1 | 1 | 2 | 2 |
| HIV-1 isolate 1131 (protease changes: D30N A71V, study 61) | 0.6 | 0.3 | 0.2 | 30.6 |
| HIV-1 isolate 1312 (protease changes: L10V I15V K20R E21K M36I N37D R41K D60N Q61E I62V C67E H69K I72V L89M I93L, study 114) | 0.5 | 0.6 | 0.4 | 0.5 |
| HIV-1 isolate 1432 (protease changes: L63P K70R, study 54) | 1.4 | 1.1 | 1.5 | 1.4 |
| HIV-1 isolate 1106 (protease changes: L10I R57G L63P A71V I84V L90M, study 110) | 3.6 | 9 | 12 | 6.2 |
| HIV-1 isolate 346 (protease changes: L10V G16E L63A V77I, study 38) | 1 | 1 | 1 | 1 |
| HIV-1 isolate 286 (protease changes: L10V M46I I62V L63P I64V L76V V77I I93L, study 119) | 12.5 | 0.6 | 1.9 | 3 |
| HIV-1 isolate 1151 (protease changes: L10R T12I L24I N37D M46I L63P A71V V82T I84V, study 68) | 11.4 | 3.2 | 1.4 | 4.5 |
| HIV-1 isolate 174 (protease changes: I13V D30N E35D M36L I62V L63Q I64V T74S N88D, study 127) | 1 | 1.5 | 1.4 | 47 |
| HIV-1 isolate 452 (protease changes: L10V I13V K14R L19P K20I E35D M36I R41K H69K K70R L89M, study 114) | 0.7 | 0.6 | 0.7 | 0.8 |
| HIV-1 isolate 1128 (protease changes: L10I M46I R57G L63P A71V I84V L90M, study 110) | 4.2 | 4.9 | 11.3 | 11.5 |
| HIV-1 isolate 1592 (protease changes: none, study 139) | 1 | 1 | 1 | 1 |
| HIV-1 isolate 705 (protease changes: L10I L24I K43T M46I I54V K55R L63P I64V V82A, study 119) | 35.9 | 3.6 | 127 | 34.3 |
| HIV-1 isolate 942 (protease changes: L10V D30N M36I L63P A71T N88D L90M, study 66) | 2.8 | 9.6 | 8.2 | 160 |
| HIV-1 isolate 1189 (protease changes: T74S V82A, study 57) | 1 | 1 | 1 | 1 |
| HIV-1 isolate 1546 (protease changes: I13V I15V M36I I62V L63P K70R, study 54) | 0.8 | 0.6 | 1.3 | 1.5 |
| HIV-1 isolate 1345 (protease changes: M46I R57G L63P V82T I84V, study 110) | 2.8 | 1 | 16.1 | 2.2 |
| HIV-1 isolate 269 (protease changes: T12A L63P I72V V77I I93L, study 15) | 0.7 | 0.5 | 0.6 | 1 |

| Test System | fold change of IC50 against reference virus (indinavir) | fold change of IC50 against reference virus (saquinavir) | fold change of IC50 against reference virus (ritonavir) | fold change of IC50 against reference virus (nelfinavir) |
| --- | --- | --- | --- | --- |
| HIV-1 isolate 793 (protease changes: N37C I54V I62V L63P V82A I93L, study 120) | 4.8 | 0.9 | 5.8 | 3.5 |
| HIV-1 isolate 1254 (protease changes: L33I E35D M36I N37H R41K I54V L63P A71V I84V N88D L90M, study 120) | 21.9 |  | 113 | 76.7 |
| HIV-1 isolate 1472 (protease changes: Q18H L19I M46L L63P L90M Q92R I93L C95F, study 119) | 7.5 | 2.6 | 4.2 | 9.3 |
| HIV-1 isolate 561 (protease changes: R41K M46I L63P H69Q, study 57) | 2 | 3 | 2 | 5 |
| HIV-1 isolate 1450 (protease changes: L10I M36I L63S L90M, study 110) | 0.9 | 0.9 | 1.8 | 2.3 |
| HIV-1 isolate 1338 (protease changes: I13V D30N E35D M36I G52S I62V L63P I64L, study 89) | 1 | 2 | 1 | 70 |
| HIV-1 isolate 638 (protease changes: D30N M36I I54V L63P A71V N88D L90M, study 66) | 5.8 | 24 | 17 | 219 |
| HIV-1 isolate 235 (protease changes: I13V E35D L63P, study 54) | 1.1 | 0.6 | 1.4 | 2.3 |
| HIV-1 isolate 282 (protease changes: D30N L63P V77I N88D L90M, study 66) | 1.3 | 3.7 | 2.1 | 32.8 |
| HIV-1 isolate 714 (protease changes: M36I N37D L63P A71V I84V N88D L90M, study 57) | 1 | 3 | 1 | 1 |
| HIV-1 isolate 1609 (protease changes: L10F K20T D30N L33F M36I M46I I54L L63P A71V V77I N88D L90M, study 66) | 6.8 | 45 | 31 | 550 |
| HIV-1 isolate 1443 (protease changes: K14R R41K L63S I64V, study 54) | 0.6 | 0.5 | 0.8 | 0.6 |
| HIV-1 isolate 135 (protease changes: M36I R57K D60E Q61E I62V L63P A71T I93L, study 54) | 0.9 | 0.5 | 0.9 | 1.4 |
| HIV-1 isolate 502 (protease changes: M36I I54V V82A, study 38) | 4 | 1 | 9 | 10 |
| HIV-1 isolate 146 (protease changes: L63P I64L V77I, study 54) | 1.1 |  | 1.9 | 1.9 |
| HIV-1 isolate 55 (protease changes: T12A R41K L63P I84V, study 54) | 1.4 | 1.2 | 3.6 | 1.3 |
| HIV-1 isolate 299 (protease changes: L10I G48V I54V V77I V82A I84V, study 112) | 12 | 592 | 75.5 | 10.2 |
| HIV-1 isolate 1316 (protease changes: L10F V11I K20I E35D M36I R41K M46I I54M I62V L63P A71I I84V I85V L90M I93L, study 123) | 22 | 29 | 55 | 38 |
| HIV-1 isolate 313 (protease changes: L10I I13V K20I E35D M36I N37D I54V Q58E L63P I66F A71V V82T, study 119) | 22.9 | 6.5 | 49.5 | 30.8 |
| HIV-1 isolate 1243 (protease changes: L10R M46I R57G L63P V82T I84V, study 110) | 3.9 | 1.7 | 22.4 | 3.6 |
| HIV-1 isolate 1202 (protease changes: L10I K20R M36I M46L I54V L63P A71V V82A L90M, study 110) | 32.2 | 29.1 | 203 | 122 |
| HIV-1 isolate 414 (protease changes: L10I E35D N37D M46I I62V L63P A71V I72E L76V L90M I93L, study 119) | 17.2 |  | 9.2 | 7.2 |
| HIV-1 isolate 1195 (protease changes: I13V D60E Q61E L63P V77I L90M, study 54) | 0.9 |  | 2.3 | 2.6 |
| HIV-1 isolate 1501 (protease changes: I13V K20M M36V N37A M46I I62V L63P N88S I93L, study 120) | 6.1 |  | 1.7 | 31.4 |
| HIV-1 isolate 298 (protease changes: L63P, study 119) | 1.1 |  | 1.3 | 1.6 |
